According to the CheMixHub viscosity set:
± gives the uncertainty stated by the source.

Assay: xn = mol fraction of the nth substance listed
Conditions: 101 kPa

SMILES: CC[N+]1(C)CCCC1.O=S(=O)(F)[N-]S(=O)(=O)F + O=S(=O)(F)[N-]S(=O)(=O)F.[Na+]
- viscosity (303 K, x2 = 0.5): 779 ± 220 mPa·s
- viscosity (303 K, x2 = 0.7): 5830 ± 2800 mPa·s
- viscosity (313 K, x2 = 0.6): 959 ± 290 mPa·s
- viscosity (323 K, x2 = 0.6): 495 ± 120 mPa·s
